Anti-infective test results gathered from many reports (values: NIAID ChemDB through PubChem).

All rows: tests on isolated targets; species: HIV; target: Reverse transcriptase

Percent inhibition refers to the dose given; in toxicity tests it is the harm to the cells.

compound	changes	method	read-out	dose	value
Nc1ncnc2c1ncn2[C@H]1CC[C@@H](COP(=O)(O)OP(=O)(O)OP(=O)(O)OP(=O)(O)OC[C@@H]2CC[C@H](n3cnc4c(N)ncnc43)O2)O1	RT-K65R	nucleotide incorporation / radiometric	fold resistance		>5.5
CSc1ncc(C(N)=O)c(Nc2ccc3cn[nH]c3c2)n1		ELISA	inhibition	1 µg/mL	62%
Nc1ccn([C@H]2CC[C@@H](COP(=O)(O)OP(=O)(O)OP(=O)(O)O)O2)c(=O)n1	RT-D67N K70R T215Y K219Q	nucleotide incorporation / radiometric	fold resistance		1.26
CC(C)=CCN1Cc2cccc3[nH]c(=S)n(c23)C[C@@H]1C	RT-V60T	nucleotide incorporation	fold resistance		2.59
CCOC(=O)c1c(C(C)C)c(C#N)c(=N)n2ccccc12			inhibition	80 µM	15%
CC(C)=CCN1Cc2cccc3[nH]c(=S)n(c23)C[C@@H]1C		nucleotide incorporation	Ki		0.76 µM
Nc1nc2c(ncn2[C@H]2CO[C@@H](COP(=O)(O)OP(=O)(O)OP(=O)(O)O)O2)c(=O)[nH]1	RT-K65R K103N	radiometric	Ki		0.034 µM
Fc1cccc(F)c1CC(=S)NCCc1ccccn1	L100I	radiometric	IC50		>100 µM
Cc1cn([C@H]2CC[C@@H](COP(=O)(O)OP(=O)(O)OP(=O)(O)O)O2)c(=O)[nH]c1=O	RT-L74V T215Y		Ki		0.24 µM
Nc1ccn([C@@H]2CC[C@H](COP(=O)(O)OP(=O)(O)OP(=O)(O)O)O2)c(=O)n1	RT-Y188L	nucleotide incorporation / radiometric	fold resistance		1.4
Nc1nc2c(ncn2[C@H]2CC[C@@H](COP(=O)(O)OP(=O)(O)OP(=O)(O)O)O2)c(=O)[nH]1	RT-V75I F77L F116Y Q151M	nucleotide incorporation / radiometric	Ki		0.045 µM
S=C(CCCc1ccccc1)Nc1ccc(Cl)cn1	Y181I	radiometric	IC50		>100 µM
Nc1nc2c(ncn2[C@H]2CC[C@@H](COP(=O)(O)OP(=O)(O)OP(=O)(O)O)O2)c(=O)[nH]1	RT-W88G	nucleotide incorporation / radiometric	IC50		0.24 µM
Nc1ccn([C@H]2C[C@H](O)[C@@H](COP(=O)(O)OP(=O)(O)OP(=O)(O)O)O2)c(=O)n1	RT-Y188L	nucleotide incorporation / radiometric	fold resistance		1.25
Cc1cc(Cc2ccc(Cl)c(Oc3cc(C#N)cc(C#N)c3)c2F)n[nH]c1=O	G190A		IC50		0.001 µM
Nc1nc2c(ncn2[C@H]2CC[C@@H](COP(=O)(O)OP(=O)(O)OP(=O)(O)OP(=O)(O)OC[C@@H]3CC[C@H](n4cnc5c(=O)[nH]c(N)nc54)O3)O2)c(=O)[nH]1	RT-D67N K70R T215Y K219Q	nucleotide incorporation / radiometric	fold resistance		0.11
S=C(Cc1ccccn1)NCCc1ccccc1	K103N	radiometric	IC50		92.7 µM
CN(C)c1nc(Cc2c(F)cccc2F)cc(=O)[nH]1	K103N	nucleotide incorporation	Ki		3 µM
Fc1cccc(F)c1CC(=S)Nc1ccc(Cl)cn1	L100I	radiometric	IC50		>100 µM
Nc1ncnc2c1ncn2[C@H]1CC[C@@H](COP(=O)(O)OP(=O)(O)OP(=O)(O)O)O1	RT-L74V T215Y		Ki		20 µM

Repeating the first 3 entries:

compound | changes | method | read-out | dose | value
Nc1ncnc2c1ncn2[C@H]1CC[C@@H](COP(=O)(O)OP(=O)(O)OP(=O)(O)OP(=O)(O)OC[C@@H]2CC[C@H](n3cnc4c(N)ncnc43)O2)O1 | RT-K65R | nucleotide incorporation / radiometric | fold resistance |  | >5.5
CSc1ncc(C(N)=O)c(Nc2ccc3cn[nH]c3c2)n1 |  | ELISA | inhibition | 1 µg/mL | 62%
Nc1ccn([C@H]2CC[C@@H](COP(=O)(O)OP(=O)(O)OP(=O)(O)O)O2)c(=O)n1 | RT-D67N K70R T215Y K219Q | nucleotide incorporation / radiometric | fold resistance |  | 1.26

Neighbouring rows are from separate reports. An empty or dashed field is not shown. ICn: concentration for n% inhibition. Fold resistance has wild type as its base.